Results of unrelated studies side by side (data: NIAID ChemDB).

All rows: tests in culture; organism: Mycobacterium avium

A number after MIC or MFC names an inhibition level or a share of isolates. An empty or dashed field is not shown. Inhibition is in % at the dose shown (toxicity tests: loss of growth or viability). Rows are shuffled and stem from different studies. ECn is the concentration giving n% inhibition of infection, replication or growth.

structure	strain or isolate	read by	setting	endpoint	tested at	value
CCCCCCCCc1ccc(NC(=O)NNC(=O)c2ccncc2)cc1	MY330/88	broth dilution	21 d	MIC100		500 µM
N/C(=N\NC(CC(=O)c1cccc(Br)c1)c1cccnc1)c1ccccn1	17 strains			MIC50		80 µg/mL
CCOc1ccc(N2CCC(c3ccc(CNC(=O)c4c(CC)nc5cc(F)ccn45)c(F)c3)CC2)cc1.Cl		fluorescence		inhibition	0.0083 µM	85%
O=C(NNC(=O)c1ccncc1)Nc1ccc(Br)cc1F	MY330/88	broth dilution	21 d	MIC100		>125 µM
CCc1nc2ccc(Cl)cn2c1C(=O)NCc1ccc(N2CCN(c3ccc(OCC4CC4)cc3)[C@@H](C)C2)c(F)c1.Cl		fluorescence		inhibition	0.034 µM	85%
CCc1cc(C(N)=S)ccn1	1854-4			MBC		>40 µg/mL
COCc1cn([C@H]2C[C@H](O)[C@@H](CO)O2)c(=O)[nH]c1=O	ATCC 25291			inhibition	50 µg/mL	0%
COc1ccc(NC(=O)NNC(=O)c2ccncc2)cc1	MY330/88	broth dilution	21 d	MIC100		62.5 µM
N/C(=N\NC(CC(=O)c1ccc(Cl)cc1)c1cccnc1)c1ccccn1	17 strains			MIC90		160 µg/mL
CCc1nc2ccc(Cl)cn2c1C(=O)NCc1ccc(-n2ccc(C(F)(F)F)n2)cc1		fluorescence		inhibition	0.14 µM	85%
N/C(=N\NC(CC(=O)c1ccccc1)c1ccncc1)c1ccccn1	17 strains			MIC90		160 µg/mL
CCc1nc2ccc(Cl)cn2c1C(=O)NCc1ccc([C@@H]2CO[C@@H](c3ccc(OC(F)(F)F)cc3)CO2)c(F)c1.Cl		fluorescence		inhibition	0.028 µM	85%
CCCCCCCc1ccc(NC(=O)NNC(=O)c2ccncc2)cc1	MY330/88	broth dilution	14 d	MIC100		32 µM
O=c1[nH]c(=O)n([C@@H]2O[C@H](CO)[C@@H](O)[C@H]2F)cc1/C=C/I	ATCC 25291			inhibition	50 µg/mL	0%
CCc1nc2cc(F)ccn2c1C(=O)NCc1ccc(N2CCN(c3cc(F)c(OC(F)(F)F)c(F)c3)[C@@H](C)C2)c(F)c1.Cl		fluorescence		inhibition	0.0065 µM	85%
O=c1[nH]c(=O)n([C@H]2C[C@H](F)[C@@H](CO)O2)cc1Cl	ATCC 25291			EC50		>50 µg/mL
N/C(=N\NC(CC(=O)c1ccccc1)c1ccccn1)c1ccccn1	17 strains			MIC50		32 µg/mL
O=c1[nH]c(=O)n([C@H]2O[C@@H](CO)[C@H](O)[C@@H]2O)cc1Br	ATCC 25291			inhibition	50 µg/mL	0%
Cc1ccc2nc(C)c(C(=O)NCc3ccc(C4CCN(c5ccc(OC(F)(F)F)cc5)CC4)c(F)c3)n2c1		fluorescence		inhibition	0.0016 µM	85%
CC(=O)OC[C@@H]1CC[C@H](n2ccc(=O)[nH]c2=O)O1	ATCC 25291			EC50		>50 µg/mL
N/C(=N\NC(CC(=O)c1ccc(Cl)c(Cl)c1)c1ccncc1)c1ccccn1	17 strains			MIC50		16 µg/mL
O=C(NNC(=O)c1ccncc1)Nc1ccc(Cl)c(C(F)(F)F)c1	MY330/88	broth dilution	14 d	MIC100		125 µM
O=c1[nH]c(=O)n([C@H]2C[C@H](O)[C@@H](CO)O2)cc1I	ATCC 25291			EC50		>50 µg/mL

A second listing of 2 rows from above:

| structure | strain or isolate | read by | setting | endpoint | tested at | value |
|---|---|---|---|---|---|---|
| O=C(NNC(=O)c1ccncc1)Nc1ccc(Cl)c(C(F)(F)F)c1 | MY330/88 | broth dilution | 14 d | MIC100 |  | 125 µM |
| COc1ccc(NC(=O)NNC(=O)c2ccncc2)cc1 | MY330/88 | broth dilution | 21 d | MIC100 |  | 62.5 µM |